The values that follow come from PubChem BioAssay AID485294 (National Center for Advancing Translational Sciences (NCATS), 2010).

By UniProt entry, the sequences of proteins in these tests, tags left out.
UniProt P00811, whole entry: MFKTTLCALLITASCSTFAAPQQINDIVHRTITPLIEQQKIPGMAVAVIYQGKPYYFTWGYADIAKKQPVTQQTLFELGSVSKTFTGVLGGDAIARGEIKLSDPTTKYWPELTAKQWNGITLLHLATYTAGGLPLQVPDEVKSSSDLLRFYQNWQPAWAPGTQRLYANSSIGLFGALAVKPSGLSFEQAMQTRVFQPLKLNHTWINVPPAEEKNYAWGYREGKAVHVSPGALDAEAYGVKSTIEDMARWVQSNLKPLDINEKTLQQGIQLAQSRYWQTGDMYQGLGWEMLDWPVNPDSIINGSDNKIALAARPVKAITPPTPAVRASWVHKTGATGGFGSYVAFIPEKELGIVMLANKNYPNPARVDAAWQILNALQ

Only a part is listed here, and it is no random draw. Records with an inconclusive call do not appear. Activity calls are given as the source filed them. The call rests on the fitted dose curve; in most records, active means well fitted inhibition curve with a large enough effect; inconclusive means small, poorly fitted or top-dose-only effect; inactive means flat fitted curve, though single readings scatter.

The assay has as its target Beta-lactamase (Escherichia coli (strain K12)) (UniProt P00811). The assay is described as follows: qHTS Inhibitors of AmpC Beta-Lactamase (assay with detergent).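 Further: 0% = no-compound wells and -100% = no-enzyme wells; nearly all actives have a fitted effect of over 25% in size.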 The settings on record: AmpC hydrolysis of nitrocefin, absorbance 480 nm, 0.01% Triton; at 114 µM (top of the series).
As for `CP(=O)(Nc1ccccn1)Oc1ccc(Cl)cc1` (stereo not drawn), the activity change, negative = inhibition was inactive: 1.33%.
In the case of `CCOP(C)(=S)SCC(=O)NC(C)C(=O)O` (stereo not drawn), the activity change, negative = inhibition is inactive: -4.17%.
For `CCOC(=O)c1ccc(NP(C)(=O)Oc2ccc(OC)cc2)cc1` (stereo not drawn) the value was inactive: -3.62%; for `Cc1cc(C)cc(OP(C)(=O)Nc2ccc(SC(F)(F)F)cc2)c1` (stereo not drawn), inactive: -5.67%; for `CP(=O)(NC(=O)Nc1ccccc1)Oc1ccccc1` (stereo not drawn), inactive: -16.7%.
Then `CCc1ccc(OP(C)(=O)N2CCN(c3ccc([N+](=O)[O-])cc3)CC2)cc1` (stereo not drawn), with inactive: 6.65%; and `Cc1cccc(C)c1OP(C)(=O)Nc1ccc(SC(F)(F)F)cc1` (stereo not drawn), with inactive: -10.2%.
For `CP(=O)(Nc1ccc(SC(F)(F)F)cc1)Oc1ccc(Cl)cc1` (stereo not drawn) the value was inactive: 3.24%; for `COc1ccccc1OP(C)(=O)Nc1ccccc1` (stereo not drawn), inactive: 2.82%.
For the compound `CP(=O)(Nc1ccccc1Br)Oc1ccccc1` (stereo not drawn), the activity change, negative = inhibition was inactive: -14%.
On to `CP(=S)(Nn1cnnc1)Oc1ccccc1` (stereo not drawn), for which the activity change, negative = inhibition was inactive: 2.32%.
For `COc1ccc(OP(C)(=O)Nc2cccc(F)c2)cc1` (stereo not drawn) the value was inactive: -11.9%; for `COc1ccccc1OP(C)(=O)Nc1cc(Cl)ccc1C` (stereo not drawn), inactive: 1.39%.
`CCOC(=O)c1ccc(NP(C)(=O)Oc2ccccc2)cc1` (stereo not drawn): the activity change, negative = inhibition is inactive: -4.82%.
For `Cc1ccc(NP(C)(=O)Oc2ccccc2)c(C)c1` (stereo not drawn) the value was inactive: 14.4%; for `COc1ccccc1OP(C)(=O)Nc1ccc(C)cc1` (stereo not drawn), inactive: -9.6%; for `Cc1cccc(C)c1OP(C)(N)=O` (stereo not drawn), inactive: 5.67%.
Then `CC(C)(C)c1ccc(OP(C)(=O)Nc2ccc(SC(F)(F)F)cc2)cc1` (stereo not drawn), with inactive: -9.14%; and `O=[N+]([O-])c1ccc2c(c1)C=Nc1ccccc1O2`, with inactive: -1.42%; and `O=[N+]([O-])c1cc([N+](=O)[O-])c(Nc2cccnc2)c([N+](=O)[O-])c1`, with inactive: 0.005%.
Then `CCN(CC)CCCOC(=O)C(O)(c1ccccc1)c1ccccc1`, with inactive: -5.88%; and `Cc1cc(C)cc(OP(C)(=O)Nc2ccccn2)c1` (stereo not drawn), with inactive: -2.23%.
On to `CP(=O)(Nc1cccc(Br)c1)Oc1ccccc1` (stereo not drawn), for which the activity change, negative = inhibition was inactive: -7.48%.
Then `Cc1ccc(C)c(NP(C)(=O)Oc2ccccc2)c1` (stereo not drawn), with inactive: 0.253%.
Then `Cc1cc(C)cc(OP(C)(=O)Nc2ccc(C)cc2C)c1` (stereo not drawn), with inactive: -4.81%; and `CCOC(=O)c1ccc(NP(C)(=O)Oc2cc(C)cc(C)c2)cc1` (stereo not drawn), with inactive: -2.9%; and `COc1ccccc1OP(C)(=O)Nc1cccc(Br)c1` (stereo not drawn), with inactive: 1.17%.
Then `CC1=NCCc2c1[nH]c1ccccc21.O=[N+]([O-])c1cc([N+](=O)[O-])c(O)c([N+](=O)[O-])c1`, with inactive: -0.292%.
